Laboratory results as given in patent US8399026B2, “Peptides isolated from spider venom, and uses thereof” (priority 2009, dated 2013).

Test system: rat DRG neurons
Assay type: cell-based
Details: compared to 600 nM TTX in each cell

With `CSCC[C@@H]1NC(=O)CNC(=O)[C@H](CC(C)C)NC(=O)[C@@H](NC(=O)[C@H](CC(=O)O)NC(=O)[C@@H](N)CC(=O)O)CSSC[C@@H]2NC(=O)[C@@H]3CSSC[C@@H](C(=O)N[C@@H](CCCCN)C(=O)N[C@@H](Cc4ccc(O)cc4)C(=O)N[C@H](C(=O)N[C@@H](CC(C)C)C(N)=O)C(C)C)NC(=O)[C@H](Cc4c[nH]c5ccccc45)NC(=O)[C@H](CCCCN)NC(=O)[C@H](CC(=O)O)NC(=O)[C@H](CCCCN)NC(=O)[C@H](CCCNC(=N)N)NC(=O)[C@H](CC(N)=O)NC(=O)[C@H](CSSC[C@H](NC(=O)[C@H](CO)NC(=O)[C@H](CO)NC(=O)[C@H](Cc4ccccc4)NC1=O)C(=O)N[C@@H](CC(=O)O)C(=O)N1CCC[C@H]1C(=O)N[C@@H](CC(=O)O)C(=O)N[C@@H](CC(N)=O)C(=O)N[C@@H](CC(=O)O)C(=O)N[C@@H](CCCCN)C(=O)N3)NC(=O)[C@H](CCCCN)NC(=O)[C@H](CCCNC(=N)N)NC(=O)CNC(=O)[C@H](CCC(=O)O)NC2=O` [Peptide A] the “inhibitory action on DRG action potentials compared with TTX” value was “significantly lower than the effect of 600 nM TTX”.
